## HIV-1 5' UTR: effect of mutations on RNA dimer formation

Values reported by Ye et al. 2022 (doi:10.1038/s41594-022-00746-2).

RNA: 5' end of the HIV-1 NL4-3 genome, made in vitro. Positions 1-437 read:
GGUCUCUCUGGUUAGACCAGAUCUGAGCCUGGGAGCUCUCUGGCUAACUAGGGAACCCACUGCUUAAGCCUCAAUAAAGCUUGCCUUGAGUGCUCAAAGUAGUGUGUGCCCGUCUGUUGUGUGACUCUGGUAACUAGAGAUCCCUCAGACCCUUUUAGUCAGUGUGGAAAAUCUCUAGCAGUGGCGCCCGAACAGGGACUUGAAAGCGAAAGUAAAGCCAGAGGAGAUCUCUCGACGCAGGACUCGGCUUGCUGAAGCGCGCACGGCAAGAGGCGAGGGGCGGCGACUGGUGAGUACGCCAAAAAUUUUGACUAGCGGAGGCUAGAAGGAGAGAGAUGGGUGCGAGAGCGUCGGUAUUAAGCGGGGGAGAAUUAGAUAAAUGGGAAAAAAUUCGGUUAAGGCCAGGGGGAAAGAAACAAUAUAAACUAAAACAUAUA

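Mutant RNA libraries with 1G, 2G or 3G starts, with or without cap, were folded at 37 °C for 30 min. Monomer and dimer bands were cut from native gels after folding in high salt (300 mM KCl, 5 mM MgCl2) or low salt (40 mM KCl, 0.1 mM MgCl2). Kdimer compares mutation frequencies in monomer and dimer, corrected for sequencing errors.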

Scale: median log2 Kdimer over the changes at a position; positive = changes inhibit dimerization, negative = changes enhance it.
Sample: 2G capped high-salt.
One numbering serves 1G, 2G and 3G.
A position is written with its base.

For A67 the result was 0.19. G68 gave 0.30. For C69 the result was -0.01. With C70 the assay gave 0.24. With U71 the assay gave 0.22. C72 read -0.03. With A73 the assay gave 0.01. A74 read -0.06.

For U75 the result was 0.03. For A76 the result was 0.01. A77 read -0.03. For A78 the result was 0.09. For G79 the result was 0.07. For C80 the result was -0.15. For U81 the result was 0.03. With U82 the assay gave 0.05.

With G83 the assay gave -0.11. C84 gave -0.35. For C85 the result was -0.40. U86 read 0.02. For U87 the result was 0.06. G88 gave 0.14. A89 read 0.04. G90 gave -0.08.

U91 gave 0.02. With G92 the assay gave 0.71. C93 read 0.09. U94 read -0.09. With C95 the assay gave 0.13. A96 gave -0.10. With A97 the assay gave 0.01. For A98 the result was 0.21.

G99 read -0.08. U100 read 0.04. With A101 the assay gave 0.43. With G102 the assay gave -0.09. U103 read -0.07. G104 read -0.15. U105 read -0.24. G106 read -0.24.

U107 read 0.14. For G108 the result was -0.35. With C109 the assay gave 0.09. C110 read 0.10. With C111 the assay gave -0.09. With G112 the assay gave 0.01. For U113 the result was -0.23. C114 gave -0.01.

With U115 the assay gave -0.05. For G116 the result was 0.42. With U117 the assay gave -0.23. U118 read -0.05. With G119 the assay gave 0.02. U120 gave 0.12. For G121 the result was -0.12. With U122 the assay gave 0.05.

G123 read -0.19. A124 read 0.12. C125 gave -0.02. For U126 the result was 0.03. C127 read 0.03. For U128 the result was 0.23. With G129 the assay gave 0.20. With G130 the assay gave 0.32.

U131 read 0.19. A132 read -0.11. A133 gave 0.06. For C134 the result was -0.13. U135 read 0.20.

Extract of 9 entries:

* U87: 0.06
* U135: 0.20
* G104: -0.15
* C111: -0.09
* U82: 0.05
* A97: 0.01
* G112: 0.01
* U115: -0.05
* G119: 0.02